Biological target: HLA-DR2 (DRB1*1501), chimeric DRA1*0101:I-Eα and DRB1*1501:I-Eβ, as expressed in HLA-DR2 transgenic mice (human; mouse) (UniProt Q8BHN5)
Assay: cell-based or functional assay

Sequences of proteins named here, by UniProt entry; tags and fusion partners are left off.
UniProt Q8BHN5, whole entry, stated change not applied: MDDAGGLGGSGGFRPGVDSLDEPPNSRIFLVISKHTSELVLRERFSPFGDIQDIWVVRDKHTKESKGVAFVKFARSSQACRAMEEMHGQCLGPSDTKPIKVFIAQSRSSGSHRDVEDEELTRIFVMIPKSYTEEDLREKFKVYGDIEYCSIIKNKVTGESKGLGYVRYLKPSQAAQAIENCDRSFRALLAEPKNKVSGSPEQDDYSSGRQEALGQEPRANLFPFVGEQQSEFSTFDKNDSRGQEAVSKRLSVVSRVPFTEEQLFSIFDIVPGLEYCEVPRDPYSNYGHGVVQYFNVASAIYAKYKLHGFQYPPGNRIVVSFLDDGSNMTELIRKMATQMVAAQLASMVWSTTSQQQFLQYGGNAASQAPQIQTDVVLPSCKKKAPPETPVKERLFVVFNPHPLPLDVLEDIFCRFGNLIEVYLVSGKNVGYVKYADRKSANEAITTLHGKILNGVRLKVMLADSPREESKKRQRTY

PB1 548-564 peptide of influenza virus A/New York/348/2003 (H1N1)
IFN-γ ELISpot at 10 µg/ml peptide, splenocytes of immunized HLA transgenic mice: 61
lowest concentration of peptide giving positive ELISpot response: 1 µg/mL
